Compound potency records, mixed from different reports. Data source: NIAID ChemDB in PubChem.

All rows: toxicity to cultured cells; cells: MT-2; measure: CC50

CCn: concentration that lowers growth or viability of the cells by n%. Blank or dashed fields: not listed here. Lines come from different laboratories, so protocols vary. a–b is a range or a potency band.

SMILES	read by	value
O=C(/C=C/c1ccc(O)c(O)c1)NCCCC[C@H](NC(=O)/C=C/c1ccc(O)c(O)c1)C(=O)O	neutral red	>51 µM
CCCCCOc1nc(N)nc2c1ncn2[C@H]1C=C[C@@H](CO)C1	-	>100 µM
COC(=O)C(CCNC(=O)/C=C/c1cc(OC)c(OC)c(OC)c1)NC(=O)/C=C/c1cc(OC)c(OC)c(OC)c1	neutral red	>282 µM
CCCOc1nc(N)nc2c1ncn2[C@@H]1C=C[C@H](CO)C1	-	98 µM
CSCC[C@@H](NC(=O)[C@@H](CC(C)C)NC(=O)[C@@H](Cc1ccccc1)NC(=O)[C@H](NC(=O)[C@@H](Cc1ccccc1)NC(=O)[C@H]1CCCN1)C(C)C)C(=O)O	-	0.99 µg/mL
C=CCC(O)(c1c(NC(=O)OCC)[nH]c2ccc(Cl)cc12)C(F)(F)F	ATP	54.9 µM
Cn1nc(NS(C)(=O)=O)c2c(Cl)ccc(-n3c([C@H](Cc4cc(F)cc(F)c4)NC(=O)Cn4nc(C(F)(F)F)c5c4C(F)(F)[C@@H]4C[C@H]54)nccc3=O)c21	XTT	>1 µM
O=C(/C=C/c1ccc(O)c(O)c1)NCCCC(NC(=O)/C=C/c1ccc(O)c(O)c1)C(=O)O	neutral red	>38 µM
Cc1ccc2c(c1)[C@@H](N1CCCC1=O)C[C@@H](c1cccc(N)c1)N2	MTT	>50 µM
CC(C)[C@H](NC(=O)[C@H](Cc1ccccc1)C[C@H](O)[C@H](Cc1ccccc1)NC(=O)OC(C)(C)C)C(=O)N[C@@H](Cc1ccccc1)C(=O)N1CCOCC1	-	>100 µM
O=C1CCCN1[C@H]1C[C@@H](c2cccc([N+](=O)[O-])c2)Nc2ccc(I)cc21	MTT	>50 µM
Nc1nc(=O)n([C@H]2O[C@@H](CO)C=C2F)cc1F	-	>100 µM
O=c1[nH]nc(Cc2ccc3c(c2)OCO3)c2ccccc12	propidium iodide	>178 µM
Cc1cc(C)c2c(c1)N[C@H](c1cccc(N)c1)C[C@@H]2N1CCCC1=O	ATP	>149 µM
CSCC[C@H](NC(=O)[C@@H](O)CS)C(=O)N[C@@H](CC(C)C)C(=O)N[C@@H](Cc1ccccc1)C(=O)N[C@H](C(=O)N[C@@H](Cc1ccccc1)C(=O)N1CCC[C@H]1C(=O)O)C(C)C	-	75.18 µg/mL
O=C1CCCN1[C@H]1C[C@@H](c2cccc([N+](=O)[O-])c2)Nc2ccccc21	ATP	51.58 µM
COC(=O)C(CCCCNC(=O)/C=C/c1ccc(O)c(O)c1)NC(=O)/C=C/c1ccc(O)c(O)c1	neutral red	>68 µM
Cc1nccnc1-c1ccc2c(=O)n(-c3ccc(Cl)c4c(NS(C)(=O)=O)nn(C)c34)c([C@H](Cc3cc(F)cc(F)c3)NC(=O)Cn3nc(C(F)F)c4c3C(F)(F)[C@@H]3C[C@H]43)nc2n1	XTT	>0.5 µM
Cn1nc(NS(C)(=O)=O)c2c(Cl)ccc(-n3c([C@@H](Cc4cc(F)cc(F)c4)NC(=O)Cn4nc(C(F)F)c5c4C(F)(F)[C@@H]4C[C@H]54)nccc3=O)c21	XTT	>1 µM
COc1ccc(N(C)C(=O)[C@H](Cc2cc(F)cc(F)c2)NC(=O)c2ccc(F)c(C(=O)N[C@@H](Cc3cc(F)cc(F)c3)C(=O)N(C)c3ccc(OC)c(F)c3)c2)cc1F	XTT	33.3 µM
C#C[C@@]1(CO)C=C[C@H](n2cc(C)c(=O)[nH]c2=O)O1	-	>100 µM
CN(C(=O)[C@H](Cc1ccccc1)NC(=O)c1ccnc(N[C@@H](Cc2ccccc2)C(=O)N(C)c2ccc3scnc3c2)n1)c1ccc2scnc2c1	XTT	100 µM
O=c1[nH]cnc2c1ncn2[C@H]1CC[C@@H](CO)S1	-	>100 µg/mL
CC(=O)O[C@H]1CC[C@H](O)CC[C@@H](C)/C=C/[C@@]2(C)CC[C@@H](C(C)(C)OC(C)=O)[C@H]12	MTT	1345–1456 µM
CCOc1ccccc1N(CC(=O)Nc1ccc(S(=O)(=O)Nc2cccc(C(F)(F)F)c2)cc1)S(C)(=O)=O	XTT	14.46 µM
CNC(=O)NC[C@H]1O[C@@H](n2cnc3c(NC(=O)Nc4ccccc4)ncnc32)[C@H](O)[C@@H]1CC(=O)O	neutral red	385 µM
O=[N+]([O-])c1cccc(-c2ccc3ccccc3n2)c1	ATP	76.68 µM
COc1ccc(N(C)C(=O)[C@H](Cc2ccccc2)NC(=O)NS(=O)(=O)N[C@@H](Cc2ccc(F)cc2)C(=O)N(C)C)cc1	XTT	100 µM
C=C1CC[C@@H](OC(C)=O)[C@@]2(C)CC[C@]3(O)O[C@@]12C[C@@]3(C)CCC(=O)C(C)C	MTT	1780 µM
Cc1cn([C@H]2C=C[C@@H](CO)O2)c(=O)[nH]c1=O	-	100 µM
COc1ccc2nc(-c3cccc(N)c3)ccc2c1	MTT	107.6 µM
COc1ccc(CCNC(=O)c2ccc(C(=O)NCCc3ccc(OC)c(OC)c3)nc2)cc1OC	XTT	73.75 µM
CCCCC(O)(c1c(NC(=O)OCC)[nH]c2cccc(Br)c12)C(F)(F)F	ATP	24 µM
CCCCCCCCCCCCCCCCCCOCCOP(=O)(O)CO[C@H](CO)Cn1cnc2c(=O)[nH]c(N)nc21	flow cytometry	0.24 µM
CSCC[C@@H](N)C(=O)N[C@H](CC(C)C)C(=O)N[C@H](Cc1ccccc1)C(=O)N[C@@H](C(=O)N[C@H](Cc1ccccc1)C(=O)N1CCC[C@@H]1C(=O)O)C(C)C	-	46.72 µg/mL
C[Si](C)(CCCn1cnc2c(N)ncnc21)O[Si](C)(C)CCCn1cnc2c(N)ncnc21	-	90 µM
C=C1C(=O)OC2C1CCC(C)C1CCC(=O)C12C	luminescence	>20 µM
Cn1nc(NS(C)(=O)=O)c2c(Cl)ccc(-n3c([C@H](Cc4cc(F)cc(F)c4)NC(=O)Cn4nc(C(F)F)c5c4C(F)(F)[C@@H]4C[C@H]54)nc4nc(-c5nccc(C(F)(F)F)n5)ccc4c3=O)c21	XTT	>0.5 µM
CC(C)C[C@H](NC(=O)[C@@H](N)CO)C(=O)N[C@@H](Cc1ccccc1)C(=O)N[C@H](C(=O)N[C@@H](Cc1ccccc1)C(=O)N1CCC[C@H]1C(=O)O)C(C)C	-	75.97 µg/mL
CC(=O)O[C@H]1CC[C@@H](O)CC[C@@H](C)/C=C/[C@@]2(C)CC[C@@H](C(C)(C)OC(C)=O)[C@H]12	MTT	1345–1456 µM
Nc1ccn([C@H]2CC[C@@H](CO)O2)c(=O)n1	-	>9.8 µg/mL
CC(C)C[C@H](N)C(=O)N[C@@H](Cc1ccccc1)C(=O)N[C@H](C(=O)N[C@@H](Cc1ccccc1)C(=O)O)C(C)C	-	17.29 µg/mL
CNc1ccccc1C(=O)NCCC[Si](C)(C)O[Si](C)(C)CCCNC(=O)c1ccccc1NC	-	12 µM
Cc1nn([C@H]2CO[C@@H](CO)O2)c(=O)[nH]c1=O	-	>100 µM
COc1ccc(Cc2n[nH]c(=O)c3ccccc23)cc1	propidium iodide	>188 µM
CN(C(=O)[C@H](Cc1ccccc1)NC(=O)NS(=O)(=O)N[C@@H](Cc1ccccc1)C(=O)N(C)c1ccccc1)c1ccccc1	XTT	100 µM
Nc1nc(N)c2ncn([C@H]3C=C[C@@H](CO)C3)c2n1	-	>100 µM
CSc1ccc(Cc2nn(C)c(=O)c3ccc(C)cc23)cc1	propidium iodide	99.5 µM
CC(C)C[C@H](NC(=O)[C@@H](N)CCC(N)=O)C(=O)N[C@@H](Cc1ccccc1)C(=O)N[C@H](C(=O)N[C@@H](Cc1ccccc1)C(=O)N1CCC[C@H]1C(=O)O)C(C)C	-	10.54 µg/mL
COC(=O)C(CCNC(=O)/C=C/c1ccc(O)c(O)c1)NC(=O)/C=C/c1ccc(O)c(O)c1	neutral red	>66 µM
CN(C(=O)[C@H](Cc1cc(F)cc(F)c1)NC(=O)NS(=O)(=O)N[C@@H](Cc1cc(F)cc(F)c1)C(=O)N(C)c1ccc2sc(=O)[nH]c2c1)c1ccc2sc(=O)[nH]c2c1	XTT	100 µM
C=CCC(O)(c1c(NC(=O)OCC)[nH]c2cc(Cl)cc(Cl)c12)C(F)(F)F	ATP	>200 µM
Cn1nc(NS(C)(=O)=O)c2c(Cl)ccc(-n3c([C@H](Cc4cc(F)cc(F)c4)NC(=O)Cn4nc(C(F)F)c5c4C(F)(F)[C@@H]4C[C@H]54)nc4nc(-c5cnccn5)ccc4c3=O)c21	XTT	>0.5 µM
COc1ccc(/C=C2\OC(=O)c3cc(Cl)c(Cl)cc32)cc1	propidium iodide	>155 µM
Nc1nc(=O)n([C@@H]2C=C[C@H](CO)O2)cc1F	-	9 µM
[N-]=[N+]=NC[C@H]1O[C@@H](n2cnc3c(NC(=O)Nc4ccccc4)ncnc32)[C@H](O)[C@@H]1CC(=O)O	neutral red	812 µM
Nc1nc2c(ncn2[C@H]2CC[C@@H](CO)S2)c(=O)[nH]1	-	>200 µg/mL
C=CCN(C(=O)[C@H](Cc1cc(F)cc(F)c1)NC(=O)NS(=O)(=O)N[C@@H](Cc1cc(F)cc(F)c1)C(=O)N(CC=C)c1ccc2nccnc2c1)c1ccc2nccnc2c1	XTT	100 µM
C/C(CC(=O)Nc1ccc(C(N)=O)cc1)=N\NC(=O)COc1ccc2ccccc2c1	XTT	>100 µM
CCOC(=O)Nc1[nH]c2cc([N+](=O)[O-])ccc2c1C(O)(CC(C)=O)C(F)(F)F	ATP	>200 µM
CCOc1nc(N)nc2c1ncn2[C@H]1C=C[C@@H](CO)C1	-	>100 µM
CC(C)C[C@H](NC(=O)[C@@H](N)CCCCN)C(=O)N[C@@H](Cc1ccccc1)C(=O)N[C@H](C(=O)N[C@@H](Cc1ccccc1)C(=O)N1CCC[C@H]1C(=O)O)C(C)C	-	>100 µg/mL
CC[C@H](C)[C@H](NC(=O)c1ccccc1SSc1ccccc1C(=O)N[C@H](C(=O)O)[C@@H](C)CC)C(=O)O	-	168 µM
Cc1ccc(C[C@@H](C)[C@@H](C)Cc2ccc(C)c(C)c2)cc1C	luminescence	68.5 µM
Cc1nc2ccccc2c(-c2ccc(Cl)cc2)c1[C@H](OC(C)(C)C)C(=O)O	-	55.5 µM
O=C(CSc1nc2ccc(NC(=O)c3ccccc3C(=O)O)cc2s1)NCc1ccccc1	XTT	>100 µM
CCCCCCCCCCCCCCCCCCOCCOP(=O)(O)CO[C@H](CO)Cn1cc(C)c(=O)[nH]c1=O	flow cytometry	25 µM
Cc1ccc2c(c1)/C(=C/c1ccccc1Cl)OC2=O	propidium iodide	>185 µM
Nc1ncn([C@@H]2CO[C@@H](CO)O2)c(=O)n1	-	27 µM
Cc1nc2cc(-c3ccc4c(=O)n(-c5ccc(Cl)c6c(NS(C)(=O)=O)nn(C)c56)c([C@H](Cc5cc(F)cc(F)c5)NC(=O)Cn5nc(C(F)F)c6c5C(F)(F)[C@@H]5C[C@H]65)nc4c3)ccc2s1	XTT	>0.5 µM
Cc1nn([C@@H]2CO[C@H](CO)O2)c(=O)[nH]c1=O	-	>100 µM
O=C(NCCCC[C@H](NC(=O)c1cc(O)c(O)c(O)c1)C(=O)O)c1cc(O)c(O)c(O)c1	neutral red	>38 µM
C=CCN(C(=O)[C@H](Cc1cc(F)cc(F)c1)NC(=O)CC(C)(C)CC(=O)N[C@@H](Cc1cc(F)cc(F)c1)C(=O)N(CC=C)c1ccc(OC)cc1)c1ccc(OC)cc1	XTT	100 µM
Cc1ccc2c(=O)n(C)nc(Cc3ccccc3)c2c1	propidium iodide	>198 µM
COCCOc1nc(N)nc2c1ncn2[C@H]1C=C[C@@H](CO)C1	-	>100 µM
C[Si](O)(O[Si](C)(CCCn1cnc2c(N)ncnc21)c1ccccc1)c1ccccc1	-	>100 µM
COC(=O)C(CCCCNC(=O)/C=C/c1cc(O)c(O)c(O)c1)NC(=O)/C=C/c1cc(O)c(O)c(O)c1	neutral red	>62 µM

For reference, 6 entries again:

{"SMILES": "Cc1ccc2c(=O)n(C)nc(Cc3ccccc3)c2c1", "read by": "propidium iodide", "value": ">198 µM"}
{"SMILES": "COC(=O)C(CCCCNC(=O)/C=C/c1cc(O)c(O)c(O)c1)NC(=O)/C=C/c1cc(O)c(O)c(O)c1", "read by": "neutral red", "value": ">62 µM"}
{"SMILES": "Cc1nc2cc(-c3ccc4c(=O)n(-c5ccc(Cl)c6c(NS(C)(=O)=O)nn(C)c56)c([C@H](Cc5cc(F)cc(F)c5)NC(=O)Cn5nc(C(F)F)c6c5C(F)(F)[C@@H]5C[C@H]65)nc4c3)ccc2s1", "read by": "XTT", "value": ">0.5 µM"}
{"SMILES": "O=[N+]([O-])c1cccc(-c2ccc3ccccc3n2)c1", "read by": "ATP", "value": "76.68 µM"}
{"SMILES": "CC(C)C[C@H](NC(=O)[C@@H](N)CCCCN)C(=O)N[C@@H](Cc1ccccc1)C(=O)N[C@H](C(=O)N[C@@H](Cc1ccccc1)C(=O)N1CCC[C@H]1C(=O)O)C(C)C", "value": ">100 µg/mL"}
{"SMILES": "[N-]=[N+]=NC[C@H]1O[C@@H](n2cnc3c(NC(=O)Nc4ccccc4)ncnc32)[C@H](O)[C@@H]1CC(=O)O", "read by": "neutral red", "value": "812 µM"}